Measured values from patent publication US20200318163A1, “BIODEGRADATION OF TOXIC ORGANIC COMPOUNDS IN CONTAMINATED ENVIRONMENTS” (Metabolik Technologies Inc., priority 2019, published 2020).

System: isolated environmental strains (Pseudomonas spp., Rhodococcus sp.)
Experiment: Degradation of individual identified NA compounds by the five isolated strains (heat maps, FIG. 2B)
Details: C16 and C18 at DBE=1

SMILES | degradation in all samples
CCCCCCCCCCCCCCCC(=O)O [palmitic acid] | high shown degradation
CCCCCCCCCCCCCCCCCC(=O)O [stearic acid] | high shown degradation
